Results from ChEMBL document CHEMBL5335767, “Synthesis and study of new siderophore analog-ciprofloxacin conjugates with antibiotic activities against Pseudomonas aeruginosa and Burkholderia spp” (Eur J Med Chem, 2023).

How the values were obtained:
Format in all cases: functional
[1] = tested on: Burkholderia pseudomallei; assay: Antibacterial activity against Burkholderia pseudomallei K96243 under muller hinton medium by CLSI protocol based microdilution method
[2] = tested on: Burkholderia pseudomallei; assay: Antibacterial activity against Burkholderia pseudomallei BPS2020IRBA001 under 1 uM FeCl3 medium by CLSI protocol based microdilution method
[3] = tested on: Burkholderia pseudomallei; assay: Antibacterial activity against Burkholderia pseudomallei BPS2020IRBA005 under muller hinton medium by CLSI protocol based microdilution method
[4] = tested on: Burkholderia pseudomallei; assay: Antibacterial activity against Burkholderia pseudomallei BPS2020IRBA003 under 1 uM FeCl3 medium by CLSI protocol based microdilution method

Measured: MIC

CC(C)(O/N=C(\C(=O)N[C@@H]1C(=O)N2C(C(=O)[O-])=C(C[n+]3ccccc3)CS[C@H]12)c1csc(N)n1)C(=O)O [CEFTAZIDIME]
4 µg/mL: all assays above
